The values that follow come from paper PMC11464777, “Approved drugs successfully repurposed against Leishmania based on machine learning predictions” (Frontiers in Cellular and Infection Microbiology, 2024).

This data set has as its system L. major and L. infantum amastigotes. The data set can be described thus: Anti-amastigote assay, stated across the three strains. Format: cell-based, Leishmania infantum, Leishmania major. The following applies: CC50/IC50 amastigotes. The method, then: THP-1-derived macrophages (5 × 10^4/well) were seeded in each 8-well Labtek slides (Thermo Scientific). Adherent macrophages were obtained as described above, then infected with stationary phase promastigotes of each strain at a ratio 10:1 (10 parasites/macrophage) in RPMI medium containing penicillin (100 U/mL) and streptomycin (100 μg/mL) with 10% fetal bovine serum (Gibco, Brazil) at 37°C in 5% CO2 for 24 h. […] Non-infected control cells were incubated in a supplemented RPMI medium containing 1% DMSO. After 72h of incubation, cells were fixed and stained using May-Grunwald-Giemsa staining with RAL 555 Kit (RAL DIAGNOSTICS, France), following the manufacturer’s instructions. The percentage of infected cells and the total number of internalized parasites per 100 macrophages were determined under immersion oil (magnification of 1000X) using light microscopy. The percentage of amastigotes viability was expressed as the percentage of total number of internalized parasites within treated cells relative to the total number of internalized parasites within control cells treated with 1% DMSO, and calculated as follows:
Relative amastigote viability (%) = [(number of amastigotes/100 treated cells)/(number of amastigotes/100 treated cells with1% DMSO)] * 100
The relative percentage of amastigote viability was evaluated to calculate half inhibitory concentrations (IC50). […]

Molecules are shown by their SMILES.

As to `CCCC(=O)Nc1ccc(OCC(O)CNC(C)C)c(C(C)=O)c1` (centres unmarked) [Acebutolol], the “Selectivity index (SI), span over strains” value is recorded as “moderate SI values”. For `CCCNC(C)C(=O)Nc1ccccc1C` (centres unmarked) [Prilocaine], the “Selectivity index (SI), span over strains” value is recorded as “moderate SI values”.
